This assay can be described thus: Confirmation assay for measurement of the activity of small molecule inhibitors on Zika virus induced Caspase-3 activity in human astrocytoma cells. Particulars: SNB-19 ZIKV-induced caspase-3/7, luminescence, 6 h; series mostly up to 46.1 µM. From the text: National Center for Advancing Translational Sciences [NCATS] Johns Hopkins University School of Medicine Florida State University Assay Overview: Increase in the Caspase-3 activity indicates an activation of apoptosis cell death pathway caused by Zika virus infection in certain types of neuronal cells including human neural progenitor cells (hNPCs), astrocytes, and astrocytoma cell line (SNB-19). This cell-based caspase-3 activity assay measures the increased caspase-3 activity in the astrocytoma cell line (SNB-19) after a 6-hour Zika virus infection with a luminescence readout. A decrease in the luminescence signal in this assay by small molecule treatment indicates an inhibitory effect of that small molecule on the Zika virus induced caspase-3 activity that may correlate with its effect on reduction of Zika virus caused cell death.
Assay Protocol Summary: The medium for SNB-19 cells is composed of RPMI 1640 (ATCC, Cat.# 30-2001), 10% fetal bovine serum (FBS) (GE healthcare Life Sciences, Cat.# SH30071.03), and 1% Pen/Strep (Gibco, Cat.# 15140-122). […] The luminescence intensity of the assay plates was measured using a ViewLux plate reader (PerkinElmer). […] The percentage inhibitions of the increased Caspase-3 activity by small molecule inhibitors were then calculated.

SMILES strings stand for the structures. Only a part is listed here, and it is no random draw. Records with an inconclusive call do not appear. Where a call stands in place of a potency, no number is given. Active and inactive are the calls of the source. Calls come from the whole dose curve; as a rule, active = well fitted inhibition curve with a large enough effect; inconclusive = small, poorly fitted or top-dose-only effect; inactive = no such curve, though single readings can be large or run the other way.

As to `C/C1=C2N=C(/C=C3N=C(/C(C)=C4\[N-][C@@](C)([C@@H]5N=C1[C@](C)(CCC(=O)NC[C@@H](C)OP(=O)([O-])O[C@H]1[C@@H](O)[C@@H](n6cnc7cc(C)c(C)cc76)O[C@@H]1CO)[C@H]5CC(N)=O)[C@@](C)(CC(N)=O)[C@@H]4CCC(N)=O)[C@@](C)(CC(N)=O)[C@@H]\3CCC(N)=O)C(C)(C)[C@@H]/2CCC(N)=O.[C-]#N.[Co+3]`, the Potency is active: 8.69 µM.

In the case of `CCOP(=O)(CC)Oc1ccc([N+](=O)[O-])cc1` (configuration not stated), the Potency result was “inactive”.
